Test system: rat DRG neurons
Type: cell-based
Settings: compared to 600 nM TTX in each cell

Compound: CSCC[C@@H]1NC(=O)CNC(=O)[C@H](CC(C)C)NC(=O)[C@@H](NC(=O)[C@H](CC(=O)O)NC(=O)[C@@H](N)CC(=O)O)CSSC[C@@H]2NC(=O)[C@@H]3CSSC[C@@H](C(=O)N[C@@H](CCCCN)C(=O)N[C@@H](Cc4ccc(O)cc4)C(=O)N[C@H](C(=O)N[C@@H](CC(C)C)C(N)=O)C(C)C)NC(=O)[C@H](Cc4c[nH]c5ccccc45)NC(=O)[C@H](CCCCN)NC(=O)[C@H](CC(=O)O)NC(=O)[C@H](CCCCN)NC(=O)[C@H](CCCNC(=N)N)NC(=O)[C@H](CC(N)=O)NC(=O)[C@H](CSSC[C@H](NC(=O)[C@H](CO)NC(=O)[C@H](CO)NC(=O)[C@H](Cc4ccccc4)NC1=O)C(=O)N[C@@H](CC(=O)O)C(=O)N1CCC[C@H]1C(=O)N[C@@H](CC(=O)O)C(=O)N[C@@H](CC(N)=O)C(=O)N[C@@H](CC(=O)O)C(=O)N[C@@H](CCCCN)C(=O)N3)NC(=O)[C@H](CCCCN)NC(=O)[C@H](CCCNC(=N)N)NC(=O)CNC(=O)[C@H](CCC(=O)O)NC2=O [Peptide A]
- inhibitory action on DRG action potentials compared with TTX: significantly lower than the effect of 600 nM TTX

— patent US8399026B2, “Peptides isolated from spider venom, and uses thereof” (priority 2009, dated 2013)
